Anti-infective test results gathered from many reports (values: NIAID ChemDB through PubChem).

ICn: concentration for n% inhibition. Blank or dashed fields: not listed here. ECn: concentration that inhibits the pathogen or its effect by n%. CCn is the concentration with n% toxicity to the cells. Percent inhibition refers to the dose given; in toxicity tests it is the harm to the cells. Rows are shuffled and stem from different studies.

| smiles | cells | protein | test | tested at | organism | endpoint | strain or isolate | value |
|---|---|---|---|---|---|---|---|---|
| CC(C)N(CCCO)C(=O)N1CC(N)C(C(=O)O)C1 |  | Neuraminidase | target |  | Influenza A virus | Ki | A/TOKYO/67 | 0.5 µM |
| Nc1ccn([C@@H]2C=C(CO)[C@@H](O)[C@H]2O)c(=O)n1 | MK2 |  | culture |  | Variola virus | EC50 | BSH | 0.03 µg/mL |
| CCN(C(=O)N1C[C@H](C(=O)O)[C@H](N)[C@H]1CNC(C)=O)C(C)C |  | Neuraminidase | target |  | Influenza A virus | Ki | A/TOKYO/67 | 2.1 µM |
| COc1cc(CNC(=O)c2ccc3c(c2)nc(-c2ccccn2)n3C2CCCCC2)ccc1O |  | RNA-dependent RNA polymerase | target |  | Poliovirus | IC50 |  | >25 µM |
| CCCCCCCCCCCCCCCCCC(=O)OC[C@@H](COP(=O)(O)OCCNCCO[C@@]1(C(=O)O)O[C@@H]([C@H](O)[C@H](O)CO)[C@H](NC(C)=O)[C@@H](O)[C@H]1F)OC(=O)CCCCCCCCCCCCCCCCC |  | Sialidase | target |  | Influenza A virus | IC50 | H10N1 A/DUCK/HK/33/76 | 250 µM |
| COC(=O)C1CC(C(=O)O)NC1C(CC(C)C)NC(C)=O |  | Neuraminidase | target |  | Influenza A virus | IC50 | A/TOKYO/67 | 0.037 µM |
| NC(=O)c1csc([C@@H]2O[C@H](CO)[C@@H](O)[C@H]2O)n1 | LLC-MK2 |  | culture |  | Variola virus | EC50 | Isolate Bangladesh | 5.5 µg/mL |
| CCN(C(=O)C1CC(C(=O)O)C(N)C1CNC(C)=O)C(C)C |  | Neuraminidase | target |  | Influenza A virus | Ki | A/TOKYO/67 | 24 µM |
| Cc1nc2cc(C(=O)N[C@@H](Cc3c[nH]c4cc(O)ccc34)C(=O)O)ccc2n1C1CCCCC1 |  | RNA-dependent RNA polymerase | target |  | Poliovirus | IC50 |  | >25 µM |
| Nc1nc(=O)n([C@@H]2C=C(CO)[C@@H](O)[C@H]2O)cc1F | VERO |  | culture |  | Variola virus | EC50 | BSH | 1.17 µg/mL |
| Nc1ccn(C[C@H]2COP(=O)(O)CO2)c(=O)n1 | VERO |  | culture |  | Variola virus | EC50 | Isolate V72-119 | 18 µg/mL |
| [N-]=[N+]=Nc1cc(C[C@H](NC(=O)c2ccc3c(c2)nc(-c2ccoc2)n3C2CCCCC2)C(=O)O)ccc1O |  | RNA-dependent RNA polymerase | target |  | Poliovirus | IC50 |  | >25 µM |
| Cn1cc(NC(=O)c2cc(NC(=O)c3cc(NC(=O)c4cc(NC(=O)c5cc(NC=O)cn5C)cn4C)cn3C)cn2C)cc1C(=O)NCCC(=N)N | BSC-1 |  | culture | 25 µg/mL | Vaccinia virus | inhibition | Noguchi | 57% |
| O=C(O)COc1ccc2cc(CC(NC(=O)c3ccc4c(c3)nc(-c3ccoc3)n4C3CCCCC3)C(=O)O)ccc2c1 |  | RNA-dependent RNA polymerase | target |  | Poliovirus | IC50 |  | >25 µM |
| CC(=O)NCC1C(N)C(C(=O)O)CN1C(=O)N(C)C |  | Neuraminidase | target |  | Influenza A virus | Ki | A/TOKYO/67 | 260 µM |
| COC(=O)[C@H](Cc1c(C)[nH]c2ccc(OCC(=O)O)cc12)NC(=O)c1ccc2c(c1)nc(-c1ccoc1)n2C1CCCCC1 |  | RNA-dependent RNA polymerase | target |  | Poliovirus | IC50 |  | >25 µM |
| CCCCCCCCCCCCC/C=C/[C@@H](O)[C@H](CO[C@@H]1O[C@H](CO)[C@H](O)[C@H](OS(=O)(=O)O)[C@H]1O)NC(=O)CCCCCCCCCCCCCCCCCCCCCCC |  | Sialidase | target | 200 µM | Influenza A virus | inhibition | H3N8 A/duck/Ukraine/1/6 | 36.9% |
| Nc1nc(=O)n([C@@H]2O[C@H](CO)[C@@H](O)[C@@H]2F)cc1I | C1271 |  | toxicity |  |  | CC50 |  | 118 µM |
| Clc1ccc2c(c1)CC(c1ccccc1)CO2 | HEP-2 |  | culture |  | Poliovirus | EC50 | IB (TYPE 2) | >10 µM |
| O=C(O)COc1ccccc1CNC1CCC(NC(=O)c2ccc3c(c2)nc(-c2ccoc2)n3C2CCCCC2)CC1 |  | RNA-dependent RNA polymerase | target |  | Poliovirus | IC50 |  | >25 µM |
| CCCCCCCCCCCCCCCCCC(=O)OC[C@@H](COP(=O)(O)OCCNCCO[C@@]1(C(=O)O)O[C@@H]([C@H](O)[C@H](O)CO)[C@H](NC(C)=O)[C@@H](O)[C@H]1F)OC(=O)CCCCCCCCCCCCCCCCC |  | Sialidase | target |  | Influenza A virus | IC50 | H1N1 A/swine/Hokkaido/2/81 | 62.5 µM |
| O=C(NC1CCNCC1)c1ccc2c(c1)nc(-c1ccoc1)n2C1CCCCC1 |  | RNA-dependent RNA polymerase | target |  | Poliovirus | IC50 |  | >25 µM |
| Clc1ccc2c(c1)C=C(c1ccccc1)CO2 | HEP-2 |  | culture |  | Poliovirus | EC50 | IB (TYPE 2) | <10 µM |
| O=c1[nH]c(=O)n([C@H]2C[C@H](O)[C@@H](CO)O2)cc1I | C1271 |  | toxicity |  |  | CC50 |  | 2.5 µM |
| O=C(O)COc1ccc2[nH]cc(C[C@H](NC(=O)c3ccc4c(c3)nc(-c3ccc(F)cc3)n4C3CCCCC3)C(=O)O)c2c1 |  | RNA-dependent RNA polymerase | target |  | Poliovirus | IC50 |  | >25 µM |
| Brc1ccc(C2=Cc3ccccc3OC2)cc1 | HEP-2 |  | culture |  | Poliovirus | EC50 | SABIN (TYPE 2) | >10 µM |
| CC(CC(=O)Nc1cccc(CC(=O)O)c1)NC(=O)CC(C)NC(=O)c1ccc2c(c1)nc(-c1ccoc1)n2C1CCCCC1 |  | RNA-dependent RNA polymerase | target |  | Poliovirus | IC50 |  | >25 µM |
| Nc1ccn(C[C@@H](CO)OCP(=O)(O)O)c(=O)n1 | VERO |  | culture |  | Variola virus | EC50 | Isolate Higgins | 14 µg/mL |
| Nc1nc(=O)n([C@@H]2O[C@H](CO)[C@@H](O)[C@@H]2O)cc1F | C1271 |  | toxicity |  |  | CC50 |  | 0.3 µM |
| CCC(CC)CC(NC(C)=O)C1NC(C(=O)O)CC1C(=O)OC |  | Neuraminidase | target |  | Influenza A virus | Ki | A/TOKYO/67 | 0.0008 µM |
| CN(C)c1nc([C@H](Cc2ccc(O)cc2)NC(=O)c2ccc3c(c2)nc(-c2ccoc2)n3C2CCCCC2)cs1 |  | RNA-dependent RNA polymerase | target |  | Poliovirus | IC50 |  | >25 µM |
| Cc1cn([C@@H]2O[C@H](CO)[C@@H](O)[C@@H]2O)c(=O)[nH]c1=O | C1271 |  | toxicity |  |  | CC50 |  | 95 µM |
| CCN(C(=O)N1C[C@@H](N)[C@@H](C(=O)O)C1)C(C)C |  | Neuraminidase | target |  | Influenza A virus | Ki | A/TOKYO/67 | 1.1 µM |
| Cc1nnsc1-c1nc2cc(C(=O)N[C@@H](Cc3c[nH]c4ccc(O)cc34)C(=O)O)ccc2n1C1CCCCC1 |  | RNA-dependent RNA polymerase | target |  | Poliovirus | IC50 |  | >25 µM |
| Clc1ccc(C2COc3ccccc3C2)cc1 | HEP-2 |  | culture | 10 µM | Poliovirus | inhibition | SABIN (TYPE 2) | 0% |
| CC(C)(Oc1ccc(C[C@H](NC(=O)c2ccc3c(c2)nc(-c2ccoc2)n3C2CCCCC2)C(N)=O)cc1)C(=O)O |  | RNA-dependent RNA polymerase | target |  | Poliovirus | IC50 |  | >25 µM |
| Clc1ccc2c(c1)C=C(c1ccc(Br)cc1)CO2 | HEP-2 |  | culture |  | Poliovirus | EC50 | SABIN (TYPE 2) | >10 µM |
| Nc1ncnc2c1nc(Cl)n2[C@@H]1O[C@H](CO)[C@@H](O)[C@H]1O | C1271 |  | toxicity |  |  | CC50 |  | 45 µM |
| Cc1c(C(=O)N[C@@H](Cc2c[nH]c3ccc(OCC(=O)O)cc23)C(=O)O)ccc2c1nc(-c1ccoc1)n2C1CCCCC1 |  | RNA-dependent RNA polymerase | target |  | Poliovirus | IC50 |  | >25 µM |

The last 6 rows once more:

smiles	cells	protein	test	tested at	organism	endpoint	strain or isolate	value
Cc1nnsc1-c1nc2cc(C(=O)N[C@@H](Cc3c[nH]c4ccc(O)cc34)C(=O)O)ccc2n1C1CCCCC1		RNA-dependent RNA polymerase	target		Poliovirus	IC50		>25 µM
Clc1ccc(C2COc3ccccc3C2)cc1	HEP-2		culture	10 µM	Poliovirus	inhibition	SABIN (TYPE 2)	0%
CC(C)(Oc1ccc(C[C@H](NC(=O)c2ccc3c(c2)nc(-c2ccoc2)n3C2CCCCC2)C(N)=O)cc1)C(=O)O		RNA-dependent RNA polymerase	target		Poliovirus	IC50		>25 µM
Clc1ccc2c(c1)C=C(c1ccc(Br)cc1)CO2	HEP-2		culture		Poliovirus	EC50	SABIN (TYPE 2)	>10 µM
Nc1ncnc2c1nc(Cl)n2[C@@H]1O[C@H](CO)[C@@H](O)[C@H]1O	C1271		toxicity			CC50		45 µM
Cc1c(C(=O)N[C@@H](Cc2c[nH]c3ccc(OCC(=O)O)cc23)C(=O)O)ccc2c1nc(-c1ccoc1)n2C1CCCCC1		RNA-dependent RNA polymerase	target		Poliovirus	IC50		>25 µM